Zika virus NS2B-NS3: effect of single substitutions on growth in cell culture

Reference: Ni et al. 2025, doi:10.1038/s41467-025-63602-z.

Chain scanned (Zika virus MR766; NS2B from position 2 to 131, then the start of NS3):
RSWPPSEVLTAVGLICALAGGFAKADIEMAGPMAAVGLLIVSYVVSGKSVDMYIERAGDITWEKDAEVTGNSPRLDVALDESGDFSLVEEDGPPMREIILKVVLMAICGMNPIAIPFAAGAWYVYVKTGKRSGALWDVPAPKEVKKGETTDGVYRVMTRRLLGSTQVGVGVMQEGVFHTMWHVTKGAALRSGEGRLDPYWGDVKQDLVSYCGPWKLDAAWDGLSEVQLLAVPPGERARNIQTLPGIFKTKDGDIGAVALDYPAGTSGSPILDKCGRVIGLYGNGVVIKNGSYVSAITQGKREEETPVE

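Mutant virus pools were grown in human Huh-7.5 cells. Deep sequencing gave the change in frequency of each mutant relative to wild type, averaged over three replicate libraries (two for positions 207-308).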

The number is log2 of the effect relative to wild type; negative values mean reduced growth, higher values better tolerance. Each entry names the wild-type residue, its position and the residue put in its place. The authors count -1 or higher as tolerated. Position 1 is the last residue of NS2A. Values above 0 are not proof of better growth: six high scorers were tested one by one, five grew less well than wild type and one about as well. Positions 1-103, 104-206 and 207-308 were made and measured as separate libraries. Stop codons (*) centre on -7 and mark the level of dead virus.

P232A gave 0.56.
T150G gave -0.99.
T249N gave -5.73.
E89Y gave -0.28.
A134W gave -5.07.
M180V gave -5.68.
Y125K gave -5.97.
G252I gave -5.57.
A256D gave -4.98.
G175* gave -5.05.
D137F gave -6.14.
V231G gave -5.93.
A256* gave -7.65.
E55Y gave -6.44.
G170* gave -4.28.
R56D gave -5.18.
L79C gave -5.63.
K127P gave -7.97.
A295R gave -6.27.
P139M gave -5.04.
D26P gave -2.39.
Y53E gave -5.85.
S266L gave -4.44.
A119Q gave -5.17.
E174T gave -5.62.
K248N gave -6.73.
G170P gave -6.84.
L207T gave -5.65.
G168R gave -6.21.
D91Y gave -1.79.
E89A gave -1.76.
V307I gave -0.95.
Q173* gave -6.80.
A295C gave -5.00.
W122H gave -4.71.
K145R gave -1.39.
V124I gave -2.23.
D76H gave 0.08.
S164Q gave -0.27.
V307K gave -2.91.
E143N gave -1.52.
G175R gave -4.86.
M95* gave -7.34.
V286Y gave -4.59.
P198R gave -8.07.
G290E gave -5.64.
I27V gave -1.05.
V277F gave -3.96.
P93H gave -5.24.
V226S gave -6.48.
A134D gave -5.44.
G47T gave -5.44.
W3I gave -4.50.
E174G gave -5.93.
A57I gave -4.41.
E67R gave -7.12.
L100A gave -2.02.
L228Y gave -4.76.
E63R gave -6.63.
D251S gave -2.40.
E7* gave -4.53.
V226H gave -4.73.
G47V gave -4.38.
L75W gave -6.66.
K142S gave -3.31.
I278K gave -5.06.
V138W gave -6.19.
L207R gave -8.54.
N289I gave -5.88.

The opening 8 entries, copied out:

{"substitution": "P232A", "effect (log2)": 0.56}
{"substitution": "T150G", "effect (log2)": -0.99}
{"substitution": "T249N", "effect (log2)": -5.73}
{"substitution": "E89Y", "effect (log2)": -0.28}
{"substitution": "A134W", "effect (log2)": -5.07}
{"substitution": "M180V", "effect (log2)": -5.68}
{"substitution": "Y125K", "effect (log2)": -5.97}
{"substitution": "G252I", "effect (log2)": -5.57}